The experiment deals with Acetylcholinesterase (Electrophorus electricus, UniProt O42275). Description: Concentration at 2 uM that inhibits 50%of acetylcholinesterase activity evaluated in vitro at a pH of 8 in the presence of 7.5x10E-4 acetylthiocholine. Particulars: pH 8.

Chains of the proteins cited; added tags and fusions are not shown. Residues count along the entry.
UniProt O42275, 24-633 limits assumed: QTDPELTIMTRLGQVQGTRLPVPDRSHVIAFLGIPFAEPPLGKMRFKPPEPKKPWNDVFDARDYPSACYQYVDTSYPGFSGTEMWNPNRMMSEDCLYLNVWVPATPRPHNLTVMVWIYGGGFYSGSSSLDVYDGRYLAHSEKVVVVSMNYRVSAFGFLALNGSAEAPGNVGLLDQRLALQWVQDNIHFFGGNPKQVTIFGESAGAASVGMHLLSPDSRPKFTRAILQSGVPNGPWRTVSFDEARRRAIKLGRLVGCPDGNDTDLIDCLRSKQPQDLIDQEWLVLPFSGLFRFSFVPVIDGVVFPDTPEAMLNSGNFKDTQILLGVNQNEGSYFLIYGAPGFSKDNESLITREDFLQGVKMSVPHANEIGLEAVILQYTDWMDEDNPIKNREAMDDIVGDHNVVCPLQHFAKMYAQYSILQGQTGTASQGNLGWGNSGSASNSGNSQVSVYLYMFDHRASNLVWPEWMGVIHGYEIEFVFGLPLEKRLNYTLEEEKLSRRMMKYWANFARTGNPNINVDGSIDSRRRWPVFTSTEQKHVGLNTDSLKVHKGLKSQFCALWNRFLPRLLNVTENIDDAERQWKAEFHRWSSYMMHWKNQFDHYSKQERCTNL

For orientation: IC50 means the midpoint of a concentration-inhibition curve. For the compound `Cc1nsc(CN=O)n1`, the IC50 is > 1 mM.

The values are drawn from BindingDB's records for 6471073.
